Results of unrelated studies side by side (data: NIAID ChemDB).

All rows: tests in culture; agent: Aspergillus niger

Conditions beyond the fields shown may differ between rows. Blank or dashed fields: not listed here. MIC50, MIC90 and the like: level of inhibition, or share of isolates inhibited.

smiles,read-out,strain,read by,conditions,result
O=C(COc1cccc(F)c1)c1ccccc1,MIC,ATCC 16404,broth dilution,48 h,>125 µg/mL
COc1cccc(N2COc3c(ccc4ccccc34)C2)c1,MIC,NCIM 545,-,-,10 µg/mL
O=C(Nc1nc2ccccc2[nH]1)c1cn[nH]c1C(=O)c1ccccc1,MIC,-,broth dilution,-,2.5 µg/mL
Fc1ccc(CO/N=C2\c3ccccc3OCC2n2cncn2)cc1,MIC,ATCC 16401,-,-,8 µg/mL
COc1ccc(-c2nc3ccccc3c(=O)n2-c2ccc(NS(=O)(=O)C3C(=O)ONN3c3ccc(C)cc3)cc2)cc1,MIC,MTCC 282,broth dilution,-,1000 µg/mL
O=c1[nH][nH]c2c1C(c1ccccc1)CC(Cc1ccc3ccccc3c1)=C2,MIC,-,agar diffusion,-,50 µg/mL
Cc1nn(-c2ccccc2)c2c1C(c1ccc(O)cc1)c1c(nc(=S)[nH]c1N)O2,MIC,MTCC 282,-,-,250 µg/mL
C=C(C(=O)O[C@H]1C[C@]2(C)[C@H]([C@@H](CO)CC[C@H]2O)[C@H]2OC(=O)C(=C)[C@@H]21)C(O)COC(C)=O,MFC,ATCC 6275,-,-,1 µg/mL
Cc1cc(Cl)[nH]c2ccc3c(=O)c(C(=O)NN4C(=O)C(Cl)C4c4ccccc4Cl)cnc3c12,MIC,-,broth dilution,-,250 µg/mL
COc1ccc(-c2nc3ccccc3c(=O)n2-c2ccc(NS(=O)(=O)C3C(=O)ONN3c3ccc(C)cc3)cc2)cc1[N+](=O)[O-],MIC,MTCC 282,broth dilution,-,1000 µg/mL
Cc1nn(-c2ccccc2)c2c1C(c1ccccc1)c1c(nc(=S)[nH]c1N)O2,MIC,MTCC 282,-,-,>1000 µg/mL
Cc1cc(Cl)[nH]c2ccc3c(=O)c(C(=O)NN=Cc4ccccc4Cl)cnc3c12,MIC,-,broth dilution,-,500 µg/mL
COc1cc(/C=C/C(C)=O)ccc1O,MIC,MTCC 218,broth dilution,-,781 µM
c1ccc(N2COc3c(ccc4ccccc34)C2)cc1,MIC,NCIM 545,-,-,15 µg/mL
O=C1CCC(c2ccccc2)=NN1Cc1n[nH]c(=S)n1-c1ccc(Br)cc1,MIC,-,-,-,5 µg/mL
COc1ccc(OCC(=O)c2ccccc2)cc1,MIC,ATCC 16404,broth dilution,72 h,>125 µg/mL
Cc1ccc(-c2csc(NS(=O)(=O)C3C(=O)ONN3c3ccc(C)cc3)n2)cc1,MIC,MTCC 282,broth dilution,-,250 µg/mL
COc1ccc(C2C(Cl)C(=O)N2NC(=O)c2cnc3c(ccc4[nH]c(Cl)cc(C)c43)c2=O)cc1,MIC,-,broth dilution,-,>1000 µg/mL
COc1cc(/C=C2\SC(=S)NC2=O)ccc1OCC(O)(Cn1cncn1)c1ccc(F)cc1F,MIC50,ATCC 16404,broth dilution,-,16 µg/mL
C=C[C@]1(C)C[C@H](OC(=O)C(=C)C(O)CO)[C@H]2C(=C)C(=O)O[C@@H]2[C@H]1C(=C)CO,MFC,ATCC 6275,-,-,0.5 µg/mL
Cc1nc(NC(=O)c2ccc(F)cc2)sc1C(=O)N/N=C1/S/C(=C/c2ccc(F)cc2)C(=O)N1c1ccccc1,MIC50,MTCC 282,-,-,250 µg/mL
Cc1ccc(C2c3c(nc(=O)[nH]c3N)Oc3c2c(C)nn3-c2ccccc2)cc1,MIC,MTCC 282,-,-,500 µg/mL
O/N=C(/COc1cccc(F)c1)c1ccccc1,MIC,ATCC 16404,broth dilution,72 h,>125 µg/mL
c1ccc(CO/N=C2\c3ccccc3OCC2n2cnnc2)cc1,MIC,ATCC 16401,-,-,>64 µg/mL
N#Cc1c(-c2cccc([N+](=O)[O-])c2)cc(-c2cc3cc(F)ccc3oc2=O)nc1NS(=O)(=O)c1ccccc1,MIC,MTCC 282,turbidity,-,1000 µg/mL
O=C1c2c(O)ccc(O)c2C(=O)c2c(NCCNCCO)ccc(NCCNCCO)c21,MIC,NCPF 7162,-,-,>100 µM
Cn1c(=O)ccc2c3sc(N4CCN(C(c5ccccc5)c5ccc(Cl)cc5)CC4)nc3ccc21,MIC100,MTCC 282,-,-,62.5 µg/mL
Fc1ccccc1CO/N=C1\c2ccccc2OCC1n1cncn1,MIC,ATCC 16401,-,-,16 µg/mL
O=C1CCC(c2ccccc2)=NN1Cc1n[nH]c(=S)n1-c1ccc(Cl)cc1,MIC,-,-,-,6 µg/mL
Cc1ccc(N2NOC(=O)C2S(=O)(=O)Nc2nc3ccc(Br)cc3s2)cc1,MIC,MTCC 282,broth dilution,-,500 µg/mL
O=c1ccc2c(ccc3nc(N4CCN(c5ccccc5Cl)CC4)sc32)o1,MIC100,MTCC 282,-,-,100 µg/mL
N#Cc1c(-c2ccc([N+](=O)[O-])cc2)cc(-c2cc3cc(F)ccc3oc2=O)nc1NS(=O)(=O)c1ccccc1,MIC,MTCC 282,turbidity,-,500 µg/mL
COc1ccccc1Nc1nc2c(sc(=S)n2-c2ccccc2)c(=O)n1-c1ccccc1OC,MIC,MTCC 282,broth dilution,-,0.8 µg/mL
C=C(C(=O)O[C@H]1C[C@]2(C)[C@H]([C@@H](CO)CC[C@H]2O)[C@H]2OC(=O)C(=C)[C@@H]21)C(O)CO,MFC,ATCC 6275,-,-,1 µg/mL
O=C1CCC(c2ccc(Cl)cc2)=NN1Cc1n[nH]c(=S)n1-c1ccc(Br)cc1,MIC,-,-,-,4 µg/mL
O=c1[nH][nH]c2c1C(c1ccc(Cl)cc1)CC(Cc1ccc3ccccc3c1)=C2,MIC,-,agar diffusion,-,50 µg/mL
Fc1cccc(CO/N=C2/c3ccccc3OCC2n2cncn2)c1,MFC,ATCC 16401,-,-,32 µg/mL
C[C@@H](c1ncncc1F)[C@](O)(Cn1cncn1)c1ccc(F)cc1F,MIC50,-,broth dilution,-,2 µg/mL
Cc1cc(Cl)[nH]c2ccc3c(=O)c(C(=O)NN4C(=O)C(Cl)C4c4ccccc4)cnc3c12,MIC,-,broth dilution,-,>1000 µg/mL
C=C(C(=O)O[C@H]1CC(C)=CCC/C(CO)=C/[C@H]2OC(=O)C(=C)[C@H]12)C(O)CO,MFC,ATCC 6275,-,-,0.25 µg/mL
COc1ccc(C=O)cc1OCC(O)(Cn1cncn1)c1ccc(F)cc1F,MIC50,ATCC 16404,broth dilution,-,128 µg/mL
COc1ccc(-c2cc(-c3cc4cc(F)ccc4oc3=O)nc(NS(=O)(=O)c3ccccc3)c2C#N)cc1,MIC,MTCC 282,turbidity,-,100 µg/mL
Cc1ccc(N2COc3c(ccc4ccccc34)C2)cc1,MIC,NCIM 545,-,-,25 µg/mL
COc1ccc(OC/C(=N/O)c2ccccc2)cc1,MIC,ATCC 16404,broth dilution,72 h,>125 µg/mL
CC(=O)N1CCN(c2nc3ccc4oc(=O)ccc4c3s2)CC1,MIC100,MTCC 282,-,-,200 µg/mL
Cc1nc(NC(=O)c2ccc(F)cc2)sc1C(=O)N/N=C1/S/C(=C/c2ccccc2O)C(=O)N1c1ccccc1,MIC50,MTCC 282,-,-,50 µg/mL
CCOC(=O)c1c(N)oc2ccc(O)cc12,MIC,KCTC 1231,broth dilution,-,25 µg/mL
COc1cc(OCC(=O)c2ccccc2)cc(OC)c1OC,MIC,ATCC 16404,broth dilution,72 h,>125 µg/mL
COc1cc(C2C(Cl)C(=O)N2NC(=O)c2cnc3c(ccc4[nH]c(Cl)cc(C)c43)c2=O)ccc1O,MIC,-,broth dilution,-,500 µg/mL
O=C1CCC(c2ccc(Oc3ccccc3)cc2)=NN1Cc1n[nH]c(=S)n1-c1ccc(Br)cc1,MIC,-,-,-,15 µg/mL
Cn1c(=O)ccc2c3sc(N4CCC(Cc5ccccc5)CC4)nc3ccc21,MIC100,MTCC 282,-,-,250 µg/mL
Cc1nn(-c2ccccc2)c2c1C(c1ccccc1)C(C#N)=C(N)O2,MIC,MTCC 282,-,-,500 µg/mL
Cc1ccc(C2=NN(Cc3n[nH]c(=S)n3-c3ccccc3)C(=O)CC2)cc1,MIC,-,-,-,7 µg/mL
COC(=O)c1c(N)oc2ccc(O)cc12,MIC,KCTC 1231,broth dilution,-,25 µg/mL
CCCCOc1ccc(-c2csc(NS(=O)(=O)C3C(=O)ONN3c3ccc(C)cc3)n2)cc1,MIC,MTCC 282,broth dilution,-,200 µg/mL
C/C=C/[C@@H]1OC(=O)C=C[C@@H]1O,MIC50,-,-,-,<1 µg/mL
Clc1ccc(CO/N=C2/c3ccccc3OCC2n2cncn2)cc1Cl,MIC,ATCC 16401,-,-,4 µg/mL
Cn1c(=O)ccc2c3sc(N4CCN(Cc5ccccc5)CC4)nc3ccc21,MIC100,MTCC 282,-,-,500 µg/mL
O=C1O/C(=C\c2ccc(OCC(O)(Cn3cncn3)c3ccc(F)cc3F)cc2)C(c2ccc(F)cc2F)=C1c1ccc(Cl)cc1,MIC50,ATCC 16404,broth dilution,-,4 µg/mL
Cc1ccc(C2CC(Cc3ccc4ccccc4c3)=Cc3[nH][nH]c(=O)c32)cc1,MIC,-,agar diffusion,-,200 µg/mL
CCOC(=O)c1c(N)oc2c(C)cc(O)c(C)c12,MIC,KCTC 1231,broth dilution,-,25 µg/mL
COc1ccc(/C=C2/S/C(=N/NC(=O)c3sc(NC(=O)c4ccc(F)cc4)nc3C)N(c3ccccc3)C2=O)cc1,MIC50,MTCC 282,-,-,100 µg/mL
Cn1c(=O)ccc2c3sc(N4CCN(c5cccc(C(F)(F)F)c5)CC4)nc3ccc21,MIC100,MTCC 282,-,-,50 µg/mL
CC1=C(Cl)C(O)=CC(=O)C12Oc1cc(O)c(Cl)c(C)c1C2=O,MIC50,MTCC 282,-,-,100 µg/mL
O=C1CCC(c2ccc(Br)cc2)=NN1Cc1n[nH]c(=S)n1-c1ccc(Cl)cc1,MIC,-,-,-,7 µg/mL
Cn1c(=O)ccc2c3sc(N4CCN(c5ncccn5)CC4)nc3ccc21,MIC100,MTCC 282,-,-,100 µg/mL
COc1ccc(C2=C(c3ccc(OCC(O)(Cn4cncn4)c4ccc(F)cc4F)cc3)C(=O)OC2)cc1,MIC50,ATCC 16404,broth dilution,-,8 µg/mL
Clc1ccc(CO/N=C2/c3ccc(Cl)cc3OCC2n2cnnc2)c(Cl)c1,MFC,ATCC 16401,-,-,>64 µg/mL
CC(C)Cc1ccc(CC2=Cc3[nH][nH]c(=O)c3C(c3ccc(Cl)cc3)C2)cc1,MIC,-,agar diffusion,-,100 µg/mL
COc1cc(C=NNC(=O)c2cnc3c(ccc4[nH]c(Cl)cc(C)c43)c2=O)ccc1O,MIC,-,broth dilution,-,1000 µg/mL
Cc1nc(NC(=O)c2ccc(F)cc2)sc1C(=O)N/N=C1/S/C(=C/c2ccccc2)C(=O)N1c1ccccc1,MIC50,MTCC 282,-,-,250 µg/mL
Clc1ccc(CO/N=C2/c3ccc(Cl)cc3OCC2n2cncn2)cc1,MIC,ATCC 16401,-,-,64 µg/mL
CN(C)C(=S)N(C)C,MIC,MTCC 1349,visual reading,-,140 µg/mL
COc1cc(C2=C(c3ccc(F)cc3F)COC2=O)ccc1OCC(O)(Cn1cncn1)c1ccc(F)cc1F,MIC50,ATCC 16404,broth dilution,-,8 µg/mL
CC[C@@]1(O)C(=O)OCc2c1cc1n(c2=O)Cc2cc3c(CN(C)C)c(O)ccc3nc2-1,MIC,NCPF 7162,-,-,>100 µM
OC(Cn1cncn1)(Cn1cncn1)c1ccc(F)cc1F,MIC100,MTCC 282,-,-,6.25 µg/mL
O=C(N/N=C/c1cc([N+](=O)[O-])ccc1O)c1ccc(I)cc1,MIC,Strain #3,-,-,0.8 µg/mL
COc1cccc2c1C(=O)c1c(O)c3c(c(O)c1C2=O)C[C@@](O)(C(C)=O)C[C@@H]3O[C@H]1C[C@H](N)[C@H](O)[C@H](C)O1,MIC,NCPF 7162,-,-,>100 µM
COc1ccccc1OCC(=O)c1ccccc1,MIC,ATCC 16404,broth dilution,72 h,>125 µg/mL
Cc1ccc(N2NOC(=O)C2S(=O)(=O)Nc2ccc(-n3c(-c4ccccc4[N+](=O)[O-])nc4ccccc4c3=O)cc2)cc1,MIC,MTCC 282,broth dilution,-,250 µg/mL
Cc1ccc(-c2cc(-c3cc4cc(F)ccc4oc3=O)nc(NS(=O)(=O)c3ccccc3)c2C#N)cc1,MIC,MTCC 282,turbidity,-,500 µg/mL
COc1ccc(C=NNC(=O)c2cnc3c(ccc4[nH]c(Cl)cc(C)c43)c2=O)cc1,MIC,-,broth dilution,-,500 µg/mL
Cc1nn(-c2ccccc2)c2c1C(c1ccccc1)c1c(nc(=O)[nH]c1N)O2,MIC,MTCC 282,-,-,>1000 µg/mL

Repeating the final 11 entries:

{"smiles": "CN(C)C(=S)N(C)C", "read-out": "MIC", "strain": "MTCC 1349", "read by": "visual reading", "result": "140 µg/mL"}
{"smiles": "COc1cc(C2=C(c3ccc(F)cc3F)COC2=O)ccc1OCC(O)(Cn1cncn1)c1ccc(F)cc1F", "read-out": "MIC50", "strain": "ATCC 16404", "read by": "broth dilution", "result": "8 µg/mL"}
{"smiles": "CC[C@@]1(O)C(=O)OCc2c1cc1n(c2=O)Cc2cc3c(CN(C)C)c(O)ccc3nc2-1", "read-out": "MIC", "strain": "NCPF 7162", "result": ">100 µM"}
{"smiles": "OC(Cn1cncn1)(Cn1cncn1)c1ccc(F)cc1F", "read-out": "MIC100", "strain": "MTCC 282", "result": "6.25 µg/mL"}
{"smiles": "O=C(N/N=C/c1cc([N+](=O)[O-])ccc1O)c1ccc(I)cc1", "read-out": "MIC", "strain": "Strain #3", "result": "0.8 µg/mL"}
{"smiles": "COc1cccc2c1C(=O)c1c(O)c3c(c(O)c1C2=O)C[C@@](O)(C(C)=O)C[C@@H]3O[C@H]1C[C@H](N)[C@H](O)[C@H](C)O1", "read-out": "MIC", "strain": "NCPF 7162", "result": ">100 µM"}
{"smiles": "COc1ccccc1OCC(=O)c1ccccc1", "read-out": "MIC", "strain": "ATCC 16404", "read by": "broth dilution", "conditions": "72 h", "result": ">125 µg/mL"}
{"smiles": "Cc1ccc(N2NOC(=O)C2S(=O)(=O)Nc2ccc(-n3c(-c4ccccc4[N+](=O)[O-])nc4ccccc4c3=O)cc2)cc1", "read-out": "MIC", "strain": "MTCC 282", "read by": "broth dilution", "result": "250 µg/mL"}
{"smiles": "Cc1ccc(-c2cc(-c3cc4cc(F)ccc4oc3=O)nc(NS(=O)(=O)c3ccccc3)c2C#N)cc1", "read-out": "MIC", "strain": "MTCC 282", "read by": "turbidity", "result": "500 µg/mL"}
{"smiles": "COc1ccc(C=NNC(=O)c2cnc3c(ccc4[nH]c(Cl)cc(C)c43)c2=O)cc1", "read-out": "MIC", "read by": "broth dilution", "result": "500 µg/mL"}
{"smiles": "Cc1nn(-c2ccccc2)c2c1C(c1ccccc1)c1c(nc(=O)[nH]c1N)O2", "read-out": "MIC", "strain": "MTCC 282", "result": ">1000 µg/mL"}